Compound potency records, mixed from different reports. Data source: NIAID ChemDB in PubChem.

Shared fields: tests in culture; agent: Candida albicans; endpoint: MIC

Two numbers with a dash give a range or band. Rows are shuffled and stem from different studies. Blank or dashed fields: not listed here.

smiles,strain or isolate,read by,value
Oc1cc2ccc1Oc1cccc(c1)CCc1ccc(O)c(c1)Oc1ccc(cc1)CC2,CA 02,broth dilution,>512 µg/mL
O=C1C(Sc2ccccc2Cl)=C(Sc2ccccc2Cl)C(=O)c2ncccc21,ATCC 10231,-,25 µg/mL
COc1ccc(C=NC2C3CC4CC(C3)CC2C4)c(Cl)c1OC,-,-,64 µg/mL
Oc1ccc2c(c1)CCc1ccc(cc1)Oc1cc(ccc1O)CCc1ccc-2c(O)c1,CA 02,broth dilution,32 µg/mL
Cc1cc(Cl)nc2c1C(=O)C(Sc1ccc(Cl)cc1)=C(Sc1ccc(Cl)cc1)C2=O,ATCC 10231,-,3.2 µg/mL
CC1(C)CCC[C@]2(C)[C@@H](C=O)C(C=O)=CC[C@@H]12,ATCC 18804 and ATCC 28815 26555 24433 64544 64550,-,0.78–1.56 µg/mL
O=C1C(Sc2ccccc2)=C(Sc2ccccc2)C(=O)c2ncccc21,ATCC 10231,-,3.2 µg/mL
CCCCOc1ccc(O)c(C(=O)NN)c1,Clinical isolates,-,125–250 µg/mL
CCCCCCCCCCC[C@H]1NC(=O)[C@H](CC(C)(C)C)NC(=O)[C@H](CCCCN)NC(=O)CNC(=O)[C@@H]1C,-,-,128 µg/mL
CCCCCCCCSc1ccnc(C(N)=S)c1,ATCC 44859,-,>500 µM
COc1ccc2cc1Oc1ccc(cc1)CCc1ccc(c(O)c1)Oc1cccc(c1)CC2,CA 02,broth dilution,>512 µg/mL
COc1ccc(C=NC23CC4CC(CC(C4)C2)C3)c(Cl)c1OC,-,-,64 µg/mL
CC(C)Oc1ccc(C(=O)O)c(O)c1,Clinical isolates,-,125–250 µg/mL
CCCCCCCCC[C@@H]1CC(=O)NCC(=O)N[C@@H](CCCCN)C(=O)N[C@@H](CC(C)C)C(=O)N1,-,-,4 µg/mL
O=C(NN1C(=O)/C(=C/c2cc3ccccc3nc2Cl)N=C1c1ccccc1)c1ccccc1,MTCC 227,broth dilution,100 µg/mL
O=C1C(Sc2ccc(Cl)cc2)=C(Sc2ccc(Cl)cc2)C(=O)c2ncccc21,ATCC 10231,-,6.3 µg/mL
Cc1coc2c1C(=O)[C@@H]1[C@@](C)(C2)[C@H](O)CC[C@@]1(C)O,ATCC 90028,broth dilution,16 µg/mL
Cc1c(O)cccc1C(=O)N[C@@H](CSc1ccccc1)[C@H](O)CN1C[C@H]2CCCC[C@H]2C[C@H]1C(=O)NC(C)(C)C,I78A,-,>64 µg/mL
NC(=S)c1cc(SC2CCCCC2)ccn1,ATCC 44859,-,500 µM
Cc1cc(Cl)nc2c1C(=O)C=CC2=O,ATCC 10231,-,50 µg/mL
CC1=C2C(=O)c3c(C)coc3C[C@@]2(C)[C@H](O)C[C@H]1O,ATCC 90028,broth dilution,32 µg/mL
O=C(NN1C(=O)/C(=C/c2cc3ccccc3nc2Cl)N=C1c1ccccc1)c1cccc(Cl)c1,MTCC 227,broth dilution,100 µg/mL
CCC(C)Oc1cc(O)cc(C(=O)O)c1,Clinical isolates,-,125–250 µg/mL
CCCCCCCCCC[C@@H]1NC(=O)[C@H](CC(C)(C)C)NC(=O)[C@H](CCCCN)NC(=O)CNC(=O)[C@H]1O,-,-,32 µg/mL
CCC(C)Sc1ccnc(C(N)=S)c1,ATCC 44859,-,250 µM
O=C(Cc1ccccc1)NN1C(=O)/C(=C/c2cc3ccccc3nc2Cl)N=C1c1ccccc1,MTCC 227,broth dilution,1000 µg/mL
CC1=C2C3=C4[C@](C)([C@@H]5C[C@@H]5[C@@]4(O)C[C@@H]4[C@]35OC(=O)C3=C5C[C@H]5[C@](O)(COC(=O)/C(C)=C/COC(=O)CCC(=O)OC3)[C@H]3C[C@H]3[C@]45C)[C@H](O)[C@]2(O)OC1=O,ATCC 90028,broth dilution,8 µg/mL
O=C(NN1C(=O)/C(=C/c2cc3ccccc3nc2Cl)N=C1c1ccccc1)c1ccccc1O,MTCC 227,broth dilution,500 µg/mL
O=C1C(Sc2ccccc2F)=C(Sc2ccccc2F)C(=O)c2ncccc21,ATCC 10231,-,12.5 µg/mL
Clc1ccc(COC(Cn2ccnc2)c2ccc(Cl)cc2Cl)c(Cl)c1,ATCC 10231,-,6 µg/mL
CCCCCCCSc1ccnc(C(N)=S)c1,ATCC 44859,-,>500 µM
CC(C)Oc1ccc(C(=O)NN)c(O)c1,Clinical isolates,-,125–250 µg/mL
C/C1=C\C(=O)c2c(C)coc2C/C(C)=C/CC1,ATCC 90028,broth dilution,128 µg/mL
CCCC(C)Oc1ccc(O)c(C(=O)NN)c1,Clinical isolates,-,125–250 µg/mL
CCCCCCCCCCCCSc1ccnc(C(N)=S)c1,ATCC 44859,-,>500 µM
CCCCCCCCCC[C@@H]1CC(=O)NCC(=O)N[C@@H](CCCCN)C(=O)N[C@@H](CC(C)(C)C)C(=O)N1,-,-,4 µg/mL
CCCCCSc1ccnc(C(N)=S)c1,ATCC 44859,-,500 µM
CC[C@H](C)[C@H](N)C(=O)NS(=O)(=O)OC[C@H]1O[C@@H](CCn2nnc(Cc3ccc(Oc4ccccc4)cc3)n2)[C@H](O)[C@@H]1O,ATCC 10231,-,>500 µg/mL

A second listing of 5 rows from above:

smiles,strain or isolate,read by,value
CCCCCSc1ccnc(C(N)=S)c1,ATCC 44859,-,500 µM
O=C(NN1C(=O)/C(=C/c2cc3ccccc3nc2Cl)N=C1c1ccccc1)c1ccccc1,MTCC 227,broth dilution,100 µg/mL
O=C(Cc1ccccc1)NN1C(=O)/C(=C/c2cc3ccccc3nc2Cl)N=C1c1ccccc1,MTCC 227,broth dilution,1000 µg/mL
O=C1C(Sc2ccccc2Cl)=C(Sc2ccccc2Cl)C(=O)c2ncccc21,ATCC 10231,-,25 µg/mL
O=C1C(Sc2ccccc2)=C(Sc2ccccc2)C(=O)c2ncccc21,ATCC 10231,-,3.2 µg/mL